Reference: paper PMC12609799, “Novel Dual-Coenzyme Specificity and Thermostability of Malate Dehydrogenase Identified in the Cyanobacterium Microcystis aeruginosa PCC7806” (International Journal of Molecular Sciences, 2025)

Columns and labels:
[1] = system: NC(=O)C1=CN([C@@H]2O[C@H](COP(=O)(O)OP(=O)(O)OC[C@H]3O[C@@H](n4cnc5c(N)ncnc54)[C@H](OP(=O)(O)O)[C@@H]3O)[C@@H](O)[C@H]2O)C=CC1; test: purified protein; details: oxaloacetate reduction, 100 mM Tris-HCl pH 8.0, 25 °C, apparent, varied: cofactor
[2] = system: NC(=O)C1=CN([C@@H]2O[C@H](COP(=O)(O)OP(=O)(O)OC[C@H]3O[C@@H](n4cnc5c(N)ncnc54)[C@H](O)[C@@H]3O)[C@@H](O)[C@H]2O)C=CC1; test: purified protein; details: oxaloacetate reduction, 100 mM Tris-HCl pH 8.0, 25 °C, apparent, varied: cofactor

Row | Substance | Km [1] | kcat/Km [1] | kcat [2] | kcat/Km [2] | Km [2]
1 | MaMDH (Ma7806MDH) (Microcystis aeruginosa PCC 7806SL; D44G) | 147.700 ± 12.04 µM | 106000 M⁻¹ s⁻¹ | 22.4 s⁻¹ | 855000 M⁻¹ s⁻¹ | –
2 | MaMDH (Ma7806MDH) (Microcystis aeruginosa PCC 7806SL; D44G/G48S/H47R/I45S) | 25.880 ± 1.13 µM | 1.03e+06 M⁻¹ s⁻¹ | 27.1 s⁻¹ | – | 177.000 ± 4.83 µM
3 | MaMDH (Ma7806MDH) (Microcystis aeruginosa PCC 7806SL; D44G/G48S/H47R/I45S/L49F/P50Q/V46E) | 43.110 ± 3.22 µM | 1.26e+06 M⁻¹ s⁻¹ | 46.1 s⁻¹ | – | 136.400 ± 6.31 µM
4 | MaMDH (Ma7806MDH) (Microcystis aeruginosa PCC 7806SL; D44G/G48S/I45S) | 38.230 ± 1.58 µM | 635000 M⁻¹ s⁻¹ | 22.5 s⁻¹ | – | 179.600 ± 11.60 µM
